Experimental data: US8354451B2, “Treatment of microbial infections with compounds that inhibit 4-hydroxyphenylpyruvate dioxygenase” (The UWM Research Foundation, Inc., priority 2009, dated 2013)

Key:
[1] = tested on: RAW 264.7 macrophages infected with B. cenocepacia C5424; assay: Macrophage phagolysosomal fusion assay (LYSOTRACKER colocalization); assay type: cell-based, murine; conditions: bacteria grown with 10 and 100 μM NTBC versus mock, p<0.05
[2] = tested on: B. cenocepacia MH1J in RAW264.7 macrophages; assay: Intracellular killing by macrophages, gentamicin protection assay; conditions: NTBC 10 and 100 mM; 1, 3, 24 and 48 h post-infection

O=C1CCCC(=O)C1C(=O)c1ccc(C(F)(F)F)cc1[N+](=O)[O-] [NTBC, 2-(2-nitro-4-trifluoromethylbenzoyl)-1,3-cyclohexanedione]
ability of bacteria to delay phagolysosomal fusion [1]: significantly reduced ability to delay phagolysosomal fusion
intracellular colony forming units, treated vs. untreated macrophages [2]: No differences
